{"source": "paper PMC9144282", "about": "(Viruses, 2022)", "key": {"[1]": {"test_system": "HEp-2"}, "[2]": {"test_system": "HT-29"}, "[3]": {"test_system": "L41"}}, "data": [{"substance": "Li^+[Ag^+2Cys2^−(OH^−)2(NH3)2] [Ag-2S]", "values": [{"measurement": "CC50, corresponding concentration of Ag+", "setting": "[1]", "value": "5.3 (1.08 Ag+) μg/mL"}, {"measurement": "CC50, corresponding concentration of Ag+", "setting": "[2]", "value": "15.9 (3.24 Ag+) μg/mL"}, {"measurement": "CC50, corresponding concentration of Ag+", "setting": "[3]", "value": "21.2 (4.32 Ag+) μg/mL"}]}]}
